PubChem BioAssay AID504761 | Drosophila RNAi Screening Center | 2011

Purpose: 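Insect host genes that dengue virus relies on to spread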 (primary screen)
Cells: D.Mel-2 cells from Drosophila
Reagents: long dsRNA against Drosophila genes
Conditions: infection with dengue virus type 2; dose and infection time not stated
Measured: 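Cells stained for dengue envelope protein and imaged; percent of infected cells per well on duplicate plates, ranked by infection, with stained nuclei counted for cell number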
Reading the numbers: infection score: higher = more virus-infected cells; cell count: higher = more cells in the well
Hit rule: 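Very low infection ranking in both replicate wells (chance probability at most 0.065), then a retest showing infection dropped 1.5-fold or more at p below 0.05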
Meaning of the calls: active = confirmed: knock-down lowers infection; inactive = not picked or not confirmed
The deposit covers about 22,000 reagents; this is an unselected part of those with a known target gene and a result. Of all reagents, 116 (0.52%) were called active. 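Calls depend on retest data that are not deposited; infection was ranked per plate without normalising between plates; the unit of the infection score is not given.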 The raw values are shown without normalisation. A number with no mark means an inactive call. Reagent sequences are not shown. The record does not give: the amount of reagent, the time to read-out.

| gene | amplicon | infection score, replicate 1 | infection score, replicate 2 | cell count, replicate 1 | cell count, replicate 2 |
| --- | --- | --- | --- | --- | --- |
| ms(2)34Fe (male sterile (2) 34Fe) | DRSC01905 | – | 9.93 | 513 | 2700 |
| exex (extra-extra) | DRSC10972 | 4.97 | 1.59 | 6179 | 6653 |
| exex (extra-extra) | DRSC24644 | 4 | 1.31 | 5856 | 5718 |
| fon (fondue) | DRSC02507 | 17 | 18 | 6622 | 6451 |
| inaF-B | DRSC18903 | 2.66 | 6.87 | 6621 | 6633 |
| CG13360 | DRSC18536 | 4.43 | 15.4 | 6114 | 6227 |
| CG13360 | DRSC28479 | 2.19 | – | 2009 | 403 |
| Lpin (Lipin) | DRSC07241 | 7.1 | 19.1 | 5785 | 6257 |
| CG13428 | DRSC06390 | 2.6 | 3.76 | 5885 | 5908 |
| Gr85a (Gustatory receptor 85a) | DRSC12760 | 3.49 | 6.95 | 6052 | 5727 |
| CG15203 | DRSC19650 | 1.96 | 6.27 | 6675 | 6615 |
| drpr (draper) | DRSC08143 | 2.27 | 0.67 | 6223 | 6596 |
| drpr (draper) | DRSC08525 | 2.06 | 4.49 | 6116 | 6710 |
| CG4294 | DRSC04460 | 25.9 | 19.9 | 5418 | 5551 |
| CG8087 | DRSC16375 | 12.4 | 4.74 | 5996 | 6377 |
| CG8087 | DRSC26924 | 18.5 | 19.8 | 5501 | 5865 |
| thoc6 | DRSC10528 | 2.86 | 4.83 | 5989 | 6155 |
| CG7201 | DRSC10786 | 1.54 | 1.64 | 5374 | 6046 |
| CG32821 (retired record) | DRSC22544 | 2.88 | 5.91 | 6659 | 6535 |
| GIIIspla2 (Phospholipase A2 group III) | DRSC18094 | 10.5 | 3.32 | 6299 | 6079 |
| GIIIspla2 (Phospholipase A2 group III) | DRSC27426 | 16.9 | 2.84 | 6720 | 6689 |
| c12.1 | DRSC18750 | 5.21 | 7.71 | 4470 | 4304 |
| c12.1 | DRSC25556 | 5.09 | 14.6 | 4971 | 5029 |
| wcy (wacky) | DRSC20132 | 1.07 | 1.02 | 6355 | 6007 |
| wcy (wacky) | DRSC26455 | 7.46 | 3.21 | 4880 | 5538 |
| CG3342 | DRSC18304 | 2 | 1.27 | 5841 | 6510 |
| CG3342 | DRSC30048 | 15 | 13.4 | 5778 | 6598 |
| CG15570 | DRSC18058 | 5 | 3.27 | 6956 | 5987 |
| CG6770 | DRSC02992 | 3.5 | 3.25 | 6596 | 6594 |
| CG6770 | DRSC26414 | 1.13 | 4.41 | 6014 | 6056 |
| CG30334 | DRSC05345 | 4.2 | 1.67 | 6308 | 5863 |
| CG30334 | DRSC24086 | 6.68 | 3.86 | 5943 | 5929 |
| tinc (tincar) | DRSC14798 | 0.46 | 5.99 | 6555 | 6465 |
| tinc (tincar) | DRSC14799 | 1.56 | 7.36 | 6338 | 6275 |
| tinc (tincar) | DRSC16308 | 6.18 | 3.4 | 5645 | 6730 |
| tinc (tincar) | DRSC16309 | 6.11 | 13.1 | 6280 | 5995 |
| CG32579 | DRSC19872 | 6.93 | 4.83 | 6712 | 6814 |
| CG5002 | DRSC06911 | 14.4 | 11.1 | 5105 | 5304 |
| CG9068 | DRSC07329 | – | 2.88 | 464 | 1597 |
| aurB (aurora B) | DRSC03548 | 20.8 | 20.1 | 1123 | 633 |
| aurB (aurora B) | DRSC23324 | 2.71 | 4.71 | 998 | 891 |
| Rpn3 (Regulatory particle non-ATPase 3) | DRSC03318 | 8.79 | 11.5 | 4016 | 4713 |
| Rpn3 (Regulatory particle non-ATPase 3) | DRSC29446 | – | 8.72 | 362 | 1513 |
| btsz (bitesize) | DRSC16231 | 6.25 | 16.6 | 6717 | 3456 |
| CG12343 | DRSC06135 | 6.82 | 5.34 | 6700 | 6513 |
| CG7115 | DRSC02000 | 5.24 | 21.6 | 6207 | 4641 |
| CG7115 | DRSC29878 | 9.05 | 11.2 | 6065 | 6166 |
| Pi3K68D (Phosphatidylinositol 3-kinase 68D) | DRSC11253 | 16.8 | 9.33 | 5596 | 5723 |
| Pi3K68D (Phosphatidylinositol 3-kinase 68D) | DRSC28860 | 12.3 | 1.57 | 2036 | 511 |
| DMAP1 (DNA methyltransferase 1 associated protein 1) | DRSC06044 | 29.9 | 26 | 4944 | 4277 |
| DMAP1 (DNA methyltransferase 1 associated protein 1) | DRSC26559 | 13.3 | 13.9 | 5390 | 5040 |
| PGRP-SB1 (Peptidoglycan recognition protein SB1) | DRSC11090 | 1.5 | 2.28 | 6582 | 6760 |
| CG11619 | DRSC09849 | 4.9 | 2.27 | 6980 | 7104 |
| Pbp95 (PSEA-binding protein 95kD) | DRSC15448 | 11.1 | 1.77 | 6551 | 6571 |
| Pbp95 (PSEA-binding protein 95kD) | DRSC27283 | 42 | 25.4 | 5604 | 5116 |
| RanBPM (Ran-binding protein M) | DRSC06079 | 14 | 12.9 | 6226 | 6735 |
| RanBPM (Ran-binding protein M) | DRSC25174 | 2.18 | 7.14 | 6371 | 6219 |
| kar (karmoisin) | DRSC14496 | 3.33 | 14.4 | 1051 | 2844 |
| dre4 | DRSC08714 | 2.6 | 11.9 | 5529 | 4166 |
| Vha44 (Vacuolar H[+] ATPase 44kD subunit) | DRSC07572 | 3.8 | 6.8 | 6291 | 6298 |
| Vha44 (Vacuolar H[+] ATPase 44kD subunit) | DRSC07573 | 25.6 | 11.5 | 5745 | 5375 |
| Vha44 (Vacuolar H[+] ATPase 44kD subunit) | DRSC24506 | 2.75 | 2.22 | 5202 | 5182 |
| CHKov2 (CHK domain ov2) | DRSC14262 | 7.17 | 5.45 | 6809 | 6810 |
| CHKov2 (CHK domain ov2) | DRSC28882 | 13.8 | 8.1 | 4323 | 3619 |
| Usp5 (Ubiquitin specific protease 5) | DRSC08244 | 1.15 | 5.56 | 5396 | 5562 |
| Usp5 (Ubiquitin specific protease 5) | DRSC28531 | 4.22 | 10.7 | 6393 | 6314 |
| CG10918 | DRSC20472 | 1.24 | 0.32 | 6430 | 5861 |
| CG10918 | DRSC24162 | 1.09 (active) | 0.94 | 6671 | 6260 |
| hoip (hoi-polloi) | DRSC03546 | 17.8 | 19.1 | 986 | 1148 |
| CG3829 | DRSC04423 | 15.1 | 43.9 | 6117 | 4090 |
| PolE4 (DNA polymerase epsilon subunit 4) | DRSC04105 | – | 0.38 | 635 | 524 |
| Ir94e (Ionotropic receptor 94e) | DRSC15229 | 16.2 | 9.58 | 6519 | 6181 |
| CG5909 | DRSC15914 | 2.22 | 5.14 | 6390 | 6387 |
| CG5909 | DRSC27750 | 18.5 | 34.5 | 4546 | 5882 |
